Experimental data as given in US4239708A, “P-Phenylene bis[imino(thiocarbonyl)] diphosphoramidic acid esters as anthelmentic agents” (dated 1980).

Tests used:
[1] = tested on: Trichostrongylus colubriformis; assay: Control of adult Trichostrongylus colubriformis in rabbits
Strongyloides ransomi = assay: Efficacy for the control of Strongyloides ransomi infections in pigs; settings: for Ave. No. of S. ransomi: control 273
Hymenolepis nana = assay: Mouse/Helminth Evaluation, H. nana; settings: mice, absence or presence of parasites is criterion
[2] = tested on: Trichostrongylus colubriformis; assay: Efficacy test in sheep, T. colubriformis
Oesophagostomum spp. = assay: Efficacy test in pigs, Oesophagostomum spp.; settings: large intestine, 50 mg/kg oral
Nematospiroides dubius = assay: Mouse/Helminth Evaluation, N. dubius; settings: mice
Haemonchus contortus = assay: Efficacy test in sheep, H. contortus
Ostertagia circumcincta = assay: Efficacy test in sheep, O. circumcincta
Aspicularis tetraptera = assay: Mouse/Helminth Evaluation, A. tetraptera; settings: mice, absence or presence of parasites is criterion
Ascaris suum = assay: Efficacy test in pigs, A. suum; settings: small intestine, 50 mg/kg oral

Structure (SMILES)	% Efficacy ([1]; single oral dose 25 mg/kg)	% Efficacy ([1]; single oral dose 50 mg/kg)	Efficacy (Strongyloides ransomi; SOD 50 mg/kg)	Ave. No. of S. ransomi (Strongyloides ransomi; SOD 50 mg/kg)	activity against H. nana (Hymenolepis nana; 0.05% in diet for 7 days)	activity against H. nana (Hymenolepis nana; 50 mg/kg single oral dose)	% Efficacy Against T. colubriformis ([2]; oral dose 25 mg/kg)	% Efficacy Against T. colubriformis ([2]; oral dose 50 mg/kg)	activity against N. dubius (Nematospiroides dubius; 0.05% in diet for 7 days)	activity against N. dubius (Nematospiroides dubius; 50 mg/kg single oral dose)	% Efficacy Against H. contortus (Haemonchus contortus; oral dose 25 mg/kg)	% Efficacy Against H. contortus (Haemonchus contortus; oral dose 50 mg/kg)	% Efficacy Against O. circumcineta (Ostertagia circumcincta; oral dose 25 mg/kg)	% Efficacy Against O. circumcineta (Ostertagia circumcincta; oral dose 50 mg/kg)	activity against A. tetraptera (Aspicularis tetraptera; 0.05% in diet for 7 days)	activity against A. tetraptera (Aspicularis tetraptera; 50 mg/kg single oral dose)	also measured
CCOP(=O)(NC(=S)Nc1ccc(NC(=S)NP(=O)(OCC)OCC)c(Cl)c1)OCC	88%	90%	96%	10	Active	Inactive	22.4%	87.1%	Inactive	Inactive	99.6%	100%	74%	92.8%	Active	Active	Efficacy (Strongyloides ransomi; SOD 25 mg/kg): 25%; Ave. No. of S. ransomi (Strongyloides ransomi; SOD 25 mg/kg): 205; Oesophagostomium spp. % Efficacy (Oesophagostomum spp.): 100%; Oesophagostomium spp. Ave. No. of worms retained (Oesophagostomum spp.; control 43): 0; A. suum % Efficacy (Ascaris suum): 100%; A. suum Ave. No. of worms retained (Ascaris suum; control 54): 0
CCOP(=O)(NC(=S)Nc1ccc(NC(=S)NP(=O)(OCC)OCC)c(OC)c1)OCC	70.9%	87.2%	100%	0	Active	Inactive	75.4%	91.5%	Inactive	Inactive	100%	100%	85.4%	97.8%	Active	Inactive	activity against H. nana (Hymenolepis nana; 0.025% in diet for 7 days): Active; activity against H. nana (Hymenolepis nana; 0.1% in diet for 7 days): Active; % Efficacy Against T. colubriformis ([2]; oral dose 12.5 mg/kg): 16.5%; activity against N. dubius (Nematospiroides dubius; 0.025% in diet for 7 days): Inactive; activity against N. dubius (Nematospiroides dubius; 0.1% in diet for 7 days): Inactive; % Efficacy Against H. contortus (Haemonchus contortus; oral dose 12.5 mg/kg): 100%; % Efficacy Against O. circumcineta (Ostertagia circumcincta; oral dose 12.5 mg/kg): 48.2%
